Compound potency records, mixed from different reports. Data source: NIAID ChemDB in PubChem.

Shared fields: whole-cell or culture tests; agent: Candida albicans

A number after MIC or MFC names an inhibition level or a share of isolates. Lines come from different laboratories, so protocols vary. a–b is a range or a potency band. An empty or dashed field is not shown.

structure | read by | strain or isolate | read-out | value
CC(C)(C)c1cc(C(C)(C)C)c2nc(C(=O)NC(Cc3ccc(O)cc3)C(=O)O)oc2c1 |  | ATCC 44859 | MIC | >500 µM
C[C@@H](c1ncncc1F)[C@](O)(Cn1cncn1)c1ccc(F)cc1F |  | ATCC 90028 | MIC | 0.125 µg/mL
N/C(=N\N=C(/Cn1cncn1)c1ccc(Br)cc1)c1ccccn1 |  | Isolate 685 | MIC | 2 µg/mL
c1ccc(-c2ccc(C(c3ccccc3)n3ccnc3)cc2)cc1 |  | 30 strains | MIC90 | 20 µg/mL
C=C[n+]1ccncc1.Cc1ccc(C(C)C)cc1.[Cl][Ru][Cl] |  |  | MIC | 200 µg/mL
Clc1ccc(OCC(Cn2ccnc2)c2ccc(Br)cc2)cc1 |  |  | MIC | 100 µg/mL
CCn1nc(C)c(N=O)c1-c1cc(C)on1 |  |  | MIC | 19 µM
COCCN1CCN(C)[C]1=[Ru]([Cl])[Cl].Cc1c(C)c(C)c(C)c(C)c1C |  |  | MIC | 400 µg/mL
Fc1ccc(OCCCC(Cn2ccnc2)c2ccc(Cl)cc2Cl)cc1 |  |  | MIC | >100 µg/mL
Cc1c(O)cccc1C(=O)N[C@@H](CSc1ccccc1)[C@H](O)CN1C[C@H]2CCCC[C@H]2C[C@H]1C(=O)NC(C)(C)C |  | I168B | MIC | >64 µg/mL
CN(CC(=O)Nc1ccccc1[N+](=O)[O-])CC(O)(Cn1cncn1)c1ccc(F)cc1F |  |  | MIC80 | 4 µg/mL
CCC(C)n1ncn(-c2ccc(N3CCN(c4ccc(OC[C@H]5CO[C@](Cn6cncn6)(c6ccc(Cl)cc6Cl)O5)cc4)CC3)cc2)c1=O |  | 12 isolates fluconazole-resistant | Geometric mean MIC | 7.127 µg/mL
Cc1ccc(/C(Cn2cncn2)=N/N=C(\N)c2ccccn2)cc1 |  | Isolate 685 | MIC | 64 µg/mL
Cc1ccc(-c2c3c(N)c4c(nc3nc3c2c(C)nn3-c2ccccc2)CCCC4)cc1 | broth dilution / absorbance | CCC 128 | MIC80 | 31.2 µg/mL
Nc1nc(N)c2c(=O)c3cc(Cl)ccc3oc2n1 | broth dilution | MTCC 227 | MIC100 | 500 µg/mL
c1ccc(C(c2ccccc2)c2n[nH]c(CN3CCc4sccc4C3)n2)cc1 | agar | NCIM371 | MIC | 100 µg/mL
C[C@@H](SC1COC(/C=C/C=C/c2ccc(C#N)cc2F)OC1)[C@](O)(Cn1cncn1)c1ccc(F)cc1F |  | SANK51486 | MIC | ≤0.008 µg/mL
N/C(=N\N=C(/Cn1ccnc1)c1ccc(Br)s1)c1ccccn1 |  | Isolate 685 | MIC | 0.5 µg/mL
COc1cc(/C=C/c2ccc(O)cc2)cc(OC)c1 | broth dilution | 0304103 | MIC80 | 32 µg/mL
Nc1ccccc1Cc1nc(CN2CCc3sccc3C2)n[nH]1 | agar | NCIM371 | MIC | 50 µg/mL
CN1C=NCCC1.Cc1ccc(C(C)C)cc1.[Cl][Ru][Cl] |  |  | MIC | 200 µg/mL
N/C(=N\N=C(/Cn1cncn1)c1ccc(-c2ccccc2)cc1)c1ccccn1 |  | Isolate 685 | MIC | 64 µg/mL
Cc1ccc(-c2c3c(N)c4c(nc3nc3c2c(C)nn3-c2ccccc2)CCC4)cc1 | broth dilution / absorbance | CCC 130 | MIC80 | 62.5 µg/mL
N/C(=N\N=C(/Cn1ccnc1)c1ccc(Cl)s1)c1ccccn1 |  | Isolate 685 | MIC | 0.5 µg/mL
COc1ccc(C2NC(=S)Nc3[nH]c(=O)sc32)cc1OC |  | ATCC 10231 | MIC | 312.5 µg/mL
CCCCCOc1ccc(-c2cc(-c3ccc(C(=O)N[C@H]4C[C@@H](O)[C@@H](O)NC(=O)[C@@H]5[C@@H](O)[C@@H](C)CN5C(=O)[C@H]([C@H](O)CC(N)=O)NC(=O)[C@H]([C@H](O)[C@@H](O)c5ccc(O)c(OS(=O)(=O)O)c5)NC(=O)[C@@H]5C[C@@H](O)CN5C(=O)[C@H]([C@@H](C)O)NC4=O)cc3)no2)cc1 |  | 12 isolates fluconazole-resistant | Geometric mean MIC | 0.015 µg/mL
COc1cccc(NC(=O)CN(C)CC(O)(Cn2cncn2)c2ccc(F)cc2F)c1 |  |  | MIC80 | 4 µg/mL
NC(N)=NCc1ccc(OCCC2(Cc3cccc(Cl)c3)CCCCC2)cc1 |  | CAF2-1 | MIC80 | 2.5–5 µg/mL
c1ccc(Cc2nc(CN3CCc4sccc4C3)n[nH]2)cc1 | agar | NCIM371 | MIC | 100 µg/mL
CC(=O)OC(CCCC12OC(C(=O)O)C(O)(C(=O)O)C(C(=O)O)(O1)C(OC(=O)CCCCCC/C=C/c1ccccc1)C2O)C(C)C/C=C/c1ccccc1 |  | SC | MIC | 3.1 µg/mL
CN1C=NCCC1.Cc1c(C)c(C)c(C)c(C)c1C.[Cl][Ru][Cl] |  |  | MIC | 400 µg/mL
COc1ccc(Cc2nc(CN3CCc4sccc4C3)n[nH]2)cc1 | agar | NCIM371 | MIC | 50 µg/mL
CCn1cnc2ccccc21.Cc1ccc(C(C)C)cc1.[Cl][Ru][Cl] |  |  | MIC | 400 µg/mL
Cc1onc(-c2nn(C)c(C)c2[N+](=O)[O-])c1[N+](=O)[O-] |  |  | MFC | >200 µM
Nc1[nH]c(=S)nc2oc3c(Br)cc(Br)cc3c(=O)c12 | broth dilution | MTCC 227 | MIC100 | 500 µg/mL
NCCc1ccc([N+](=O)[O-])c2c(=O)c3ccccc3[nH]c12 |  | CNCM 1180-79 | MIC | 100 µg/mL
Cc1ccc(-c2c3c(N)c4c(nc3nc3c2c(C)nn3-c2ccccc2)CCCCC4)cc1 | broth dilution / absorbance | CCC 128 | MIC50 | 62.5 µg/mL
CCSc1ccc([N+](=O)[O-])c2c(SCC)c3ccccc3nc12 |  | CNCM 1180-79 | MIC | 500 µg/mL
Clc1ccc(C(COc2ccccc2Cl)Cn2ccnc2)c(Cl)c1 |  |  | MIC | 100 µg/mL
Cc1cc(-c2cc(C)n(CCO)n2)no1 |  |  | MFC | >200 µM
N/C(=N\N=C(/Cn1ccnc1)c1ccccc1)c1ccccn1 |  | Isolate 685 | MIC | 2 µg/mL
CCn1nc(C)c([N+](=O)[O-])c1-c1cc(C)on1 |  |  | MFC | >200 µM
Clc1ccc(OCC(Cn2ccnc2)c2ccc(Cl)cc2Cl)c(Cl)c1 |  |  | MIC | >100 µg/mL
C1=NCCCN1Cc1ccccc1.Cc1c(C)c(C)c(C)c(C)c1C.[Cl][Ru][Cl] |  |  | MIC | 400 µg/mL
Nc1[nH]c(=S)nc2oc3ccc([N+](=O)[O-])cc3c(=O)c12 | broth dilution | MTCC 227 | MIC100 | 500 µg/mL
COc1ccc(CN2CCN(Cc3ccc(OC)cc3)[C]2=[Ru]([Cl])[Cl])cc1.Cc1c(C)c(C)c(C)c(C)c1C |  |  | MIC | 200 µg/mL
CC(C)=CCC1=CC(=O)C(=O)C(C)=C1O |  | ATCC 10231 | MIC | 37 µg/mL
O=C1O/C(=C\c2ccc(OCC(O)(Cn3cncn3)c3ccc(F)cc3F)cc2)C(c2ccc(F)cc2F)=C1c1ccc(Cl)cc1 | broth dilution | ATCC 24433 | MIC50 | 4 µg/mL
Cc1ccc2c(=O)c3c(N)[nH]c(=S)nc3oc2c1 | broth dilution | MTCC 227 | MIC100 | 250 µg/mL
CCCCCCCCCC(=O)[C@@H](C)C(=O)N[C@@H](CC(C)C)C(=O)N[C@H](C)C(=O)N1CCC[C@H]1C(=O)N[C@H](C(=O)N[C@H]1CSCCNC1=O)C(C)C | broth dilution | Day185 | MIC | >200 µM
CC(C)(C)c1cc(C(C)(C)C)c2oc(Cc3ccc(O)cc3)nc2c1 |  | ATCC 44859 | MIC | >500 µM
Clc1ccc(COC(Cn2ccnc2)c2ccc(Cl)cc2Cl)c(Cl)c1 |  | ATCC 10231 | MIC | 6 µg/mL
O=C1C[C@@H](c2ccccc2)Oc2cc(O)cc(O)c21 |  |  | MIC | 3 µg/mL
CCN(CC)CCSc1c2ccccc2nc2cccc([N+](=O)[O-])c12 |  | CNCM 1180-79 | MFC | >500 µg/mL
CCCCCCCCCC(=O)[C@@H](C)C(=O)N[C@@H](CC(C)C)C(=O)N[C@H](C)C(=O)N1CCC[C@H]1C(=O)N[C@H](C(=O)N[C@H]1CSCCNC1=O)[C@@H](C)CC | broth dilution | Day185 | MIC | >200 µM
CC(=CCC/C=C(\C)CCC=C(C)CCC[N+](C)(C)[O-])CC/C=C(\C)CCC1OC1(C)C |  | ATCC 10231 | MIC | 120 µM
Nc1nc(N)c2c(=O)c3cc(Br)cc(Br)c3oc2n1 | broth dilution | MTCC 227 | MIC100 | >1000 µg/mL
CCn1cnc2ccccc21.Cc1c(C)c(C)c(C)c(C)c1C.[Cl][Ru][Cl] |  |  | MIC | 400 µg/mL
c1ccc(-c2n[nH]c(CN3CCc4sccc4C3)n2)cc1 | agar | NCIM371 | MIC | 75 µg/mL
COCCN1CCN(CCOC)[C]1=[Ru]([Cl])[Cl].Cc1c(C)c(C)c(C)c(C)c1C |  |  | MIC | >800 µg/mL
CN(CC(=O)Nc1cccc([N+](=O)[O-])c1)CC(O)(Cn1cncn1)c1ccc(F)cc1F |  |  | MIC80 | >64 µg/mL
C[C@@H]([C@H](N)C(=O)N[C@H](C(=O)O)[C@H]1O[C@@H](n2ccc(=O)[nH]c2=O)[C@H](O)[C@@H]1O)[C@H](O)c1ccc(O)cn1 |  | 15 isolates | MIC50 | 4 µg/mL
CN(C)CCCSc1c2ccccc2nc2cccc([N+](=O)[O-])c12 |  | CNCM 1180-79 | MIC | 500 µg/mL

The first 4 rows once more:

CC(C)(C)c1cc(C(C)(C)C)c2nc(C(=O)NC(Cc3ccc(O)cc3)C(=O)O)oc2c1 ; strain or isolate: ATCC 44859 ; read-out: MIC ; value: >500 µM
C[C@@H](c1ncncc1F)[C@](O)(Cn1cncn1)c1ccc(F)cc1F ; strain or isolate: ATCC 90028 ; read-out: MIC ; value: 0.125 µg/mL
N/C(=N\N=C(/Cn1cncn1)c1ccc(Br)cc1)c1ccccn1 ; strain or isolate: Isolate 685 ; read-out: MIC ; value: 2 µg/mL
c1ccc(-c2ccc(C(c3ccccc3)n3ccnc3)cc2)cc1 ; strain or isolate: 30 strains ; read-out: MIC90 ; value: 20 µg/mL